{"sequences": {"note": "Amino acid sequences for entries named in this document (tags omitted).", "UniProt Q7Z1V1, whole entry": "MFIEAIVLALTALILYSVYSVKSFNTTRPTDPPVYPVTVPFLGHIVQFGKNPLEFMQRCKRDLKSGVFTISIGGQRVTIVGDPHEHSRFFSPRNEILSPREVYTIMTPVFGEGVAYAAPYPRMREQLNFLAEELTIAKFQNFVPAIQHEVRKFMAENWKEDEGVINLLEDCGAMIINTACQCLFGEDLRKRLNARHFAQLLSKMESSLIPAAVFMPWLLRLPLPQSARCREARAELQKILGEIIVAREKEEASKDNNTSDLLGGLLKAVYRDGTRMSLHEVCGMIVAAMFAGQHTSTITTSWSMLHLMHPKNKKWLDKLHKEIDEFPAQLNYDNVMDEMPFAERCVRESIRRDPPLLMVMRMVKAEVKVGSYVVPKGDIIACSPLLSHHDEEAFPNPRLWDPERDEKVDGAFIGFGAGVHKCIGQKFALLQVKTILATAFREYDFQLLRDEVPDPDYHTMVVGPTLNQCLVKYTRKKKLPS"}, "source": "ChEMBL document CHEMBL3430912", "about": "“GSK Tres Cantos Anti-Kinetoplastid Screening (TCAKS) Data”", "biological_target": "Sterol 14-alpha demethylase (Trypanosoma cruzi (strain CL Brener), UniProt Q7Z1V1)", "test": "GSK_TCAKS: pIC50 CYP51 from Trypanosoma cruzi.", "format": "functional"}
{"smiles": "O=C(Cc1ccc(F)cc1)N(Cc1cccnc1)C1CCN(CCc2cccs2)CC1", "values": [{"measurement": "pIC50", "value": 7.6}]}
